# Results of single-concentration screens

The values are deposited in ChEMBL (CHEMBL3988442, “University of Dundee, Small-Polar-MMV Screening Library” (2021)).

Mtb glucose medium: 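Whole-cell growth test on Mycobacterium tuberculosis, read after 3 days in glucose-containing 7H9 medium; the read-out is not stated. Compounds at 50 µM. Higher reads as more growth inhibition (inferred: compounds with an IC50 in retests scored well above the rest). Size under these conditions: about 69,000 compounds, about 760 of them at 50% or above in at least one test.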
Mtb cholesterol medium: 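Growth of Mycobacterium tuberculosis over 4 days (cholesterol / DPPC medium with tyloxapol); the read-out is not stated. Compounds at 50 µM. The record gives no direction; compounds that gave an IC50 in retests scored well above the rest, so higher reads as more growth inhibition. Of about 69,000 compounds tested this way, about 370 (0.54%) reached 50% or more in at least one test.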

The filed quantity is “Percent Effect” (%). The record does not define 0% and 100%; most values in the screen are far below 50% and negative numbers occur (in some assays of this library far below -100). Many other results are left out here, so strong results are more common than in the screen. Two or more numbers in one place are separate tests of the same structure; such repeats can differ widely. A dash means the value is not listed here; it may have been measured.

compound,Mtb glucose medium,Mtb cholesterol medium
FC(F)Sc1ccc(NCc2nnc(C3CC3)o2)cc1,54.86%,51.93%
CN(C)c1ccc(NC(=O)c2cccc(N(C)C)c2)nc1,-17.3% and -113.9%,-29%
CCCC(=O)NCc1cccc(C(=O)OC)c1,28.97% and -2.724%,-
N#Cc1ccc(NC2CCN(c3ncccn3)CC2)cc1C(F)(F)F,75.66%,67.39%
COC[C@@H]1CCC[C@@]12CN(C(=O)N(C)C)CCO2,-26.78%,-
Cc1ccc(N2CCN(C)c3ncccc3C2)nn1.O=C(O)C(F)(F)F,32.84% and 65.07%,-
CC(C)(C)c1ncc(C(=O)NCCNC(=O)c2cccs2)s1,-33.5%,-
CC(=O)c1c(F)cccc1N1CCC(CS(N)(=O)=O)CC1,6.862%,-
N#Cc1cnc2c(F)cc(F)cc2c1NC1CCN(CC(N)=O)CC1,-33.28% and -3.89%,-
COc1ccc(C[C@H]2CN(c3cc(OC)ncn3)CC[C@@H]2OC)cc1.O=C(O)C(F)(F)F,26.59% and 31.79%,4.167%
CC(NCc1cccc2c1OCCO2)c1cc2c(cc1Br)OCCO2 (centres undefined),11.48%,-
CC1(C)CCC(C(=O)O)c2ccccc21 (centres undefined),-,-14.57%
Cl.Cl.Clc1cccc(C[C@@H]2NCCC[C@@H]2Nc2ccccc2)c1,111.4%,105.7%
CCOc1ccc2nc(CN3CCC(CNC(C)=O)C3)ccc2c1 (centres undefined),-1.281%,-
CN1CCC2(CC1)CC(NC(=O)c1csnn1)c1ccccc1O2.O=C(O)C(F)(F)F (centres undefined),47.7%,-
CCc1ocnc1C(=O)N1CCOC(CCCC(C)C)C1 (centres undefined),28.95% and 26.65%,25.37%
Cc1nc(CN2CCCC(N(C)c3ccc(C#N)cn3)C2)no1 (centres undefined),8.806%,-
COc1ccc2nnc(C(=O)NC3CCCC3)nc2c1,9.297% and 22.12%,-
CN(C)c1ccc(CNC(=O)c2ccc(Cl)cc2F)cc1,33.35% and 53.5%,-
Cc1nc(COCc2cnc3n2CCN(CC2CCC2)C3C)cs1.O=C(O)C(F)(F)F (centres undefined),51.54%,-
Cc1cc(C(=O)N2CCN(c3nc4c(C(C)C)cccc4s3)CC2)on1,58.13%,65.27%
CC(C)(C)NC(=O)c1ccccc1NC(=O)c1ccncc1,-,-5.212%
Cc1cc(C(=O)NCCSC2CCCC2)no1,-17.43%,-
CS(=O)(=O)N1CCCC1c1cccc(Cc2ccccc2F)n1 (centres undefined),7.454%,-
Clc1ccc(-c2c[nH]c([C@@H]3COCCN3)n2)cc1,0.3468% and 7.894%,-
Cc1nc(C2CCCN(C(=O)c3ccc(N4CCCC4)nn3)C2)no1 (centres undefined),58.34%,-
O=C(Cc1ccc2c(c1)CCC2)NC1CCN(Cc2ccccc2)CC1,10.53% and 0.3403%,-13.43%
CCN(Cc1c(C)nn(C)c1C)C(=O)C1COc2ccccc2C1 (centres undefined),-,-11.94% and -1.992%
Cc1ccc(C(=O)NCCCC2(C3OCCO3)CCOCC2)cc1C,7.269% and 12.26%,-
Cl.Cn1nc(C2CCCN(Cc3cc(F)ccc3F)C2)c2nccnc21 (centres undefined),-,69.98%
NCCn1nc(C2CCN(Cc3ccccc3Cl)C2)c2nccnc21 (centres undefined),-,53.37%
CC(=O)NCCCNCc1cc(F)ccc1Br,36.6% and 8.909%,-
Cc1ccc(NC(=O)NCC2CCS(=O)(=O)C2)cc1Cl (centres undefined),14.05%,-17.81% and -2.976%
COc1cc(C(=O)NCCc2ccc(OC)c(OC)c2)on1,-0.3902% and 2.002%,7.531%
CC(C)CCNc1nnc(C(C)C)s1,9.35%,44.14%
COC1(CNC(=O)c2cccc(C#N)c2)CCSC1 (centres undefined),-,97.17%
Cc1ccc(C(=O)NC(C)Cn2cccn2)c(=O)[nH]1 (centres undefined),-12.81%,-19.52%
CCOCC(=O)NC(C)Cc1ccccc1Br (centres undefined),62.76%,-
CC(Cn1cccn1)NCc1csc(-c2ccsc2)n1 (centres undefined),24.57%,-
N#Cc1ccc(OC2CCN(C(=O)c3ccc(Br)o3)CC2)nc1,6.087%,-
FC(F)(F)COc1ccc(CSCc2ccon2)cn1,22.61%,0.7301%
CN[C@@H]1CCC[C@@H](Oc2ccccc2Oc2ccc(C)cc2)[C@@H]1O,-,54.54% and 46.96%
Cc1cc(C(=O)NCc2cc(C)oc2C)no1,-,23.97%
CCC(C)Oc1ccc(CNCCNS(C)(=O)=O)cc1Cl (centres undefined),-,75.46%
CC(C)C(NC(=O)c1nc(N2CCOCC2)ncc1Cl)c1cccs1 (centres undefined),-14.93%,-
CC1CCN(S(=O)(=O)NC(C)Cc2ccco2)CC1 (centres undefined),-,40.23%
COc1ccc(-c2nc(CCNCc3ccncc3)co2)cc1,30.3%,11.73% and 26.96%
CCOc1ccc(N2CCCN=C2NC(=O)c2cccc(OC)c2)cc1,-5.527%,-33.84%
COC(=O)c1ccc(C(=O)N2CCCC(Nc3ccc(F)cc3)C2)cc1 (centres undefined),-,1.276% and 27.83%
CCn1ccnc1CN1CCCC1Cn1cc(C)cn1 (centres undefined),87.27%,-
CN1CCCC(c2cccc(-c3cccc(F)c3)n2)C1 (centres undefined),38.8%,43.64%
O=C(O)C(F)(F)F.O=C(O)C(F)(F)F.O=C(O)C(F)(F)F.[H][C@]12C[C@@H](Cn3cccn3)N(C(C)C)[C@@]1([H])CCN(Cc1ccoc1)C2,12.98% and 6.59%,-
Cc1nc(N(C)C)nc(C)c1NC(=O)c1ccccc1F,23.61%,-
CC[C@@]1(O)CCN(c2ncc(Cl)cc2F)C[C@H]1O,13.39%,8.313%

For reference, 3 entries once more:

compound	Mtb glucose medium	Mtb cholesterol medium
CC(C)(C)NC(=O)c1ccccc1NC(=O)c1ccncc1	-	-5.212%
CC(=O)c1c(F)cccc1N1CCC(CS(N)(=O)=O)CC1	6.862%	-
CC(C)(C)c1ncc(C(=O)NCCNC(=O)c2cccs2)s1	-33.5%	-